Compound potency records, mixed from different reports. Data source: NIAID ChemDB in PubChem.

All rows: cytotoxicity tests; cell line: MT-4; measure: CC50

CCn: concentration that lowers growth or viability of the cells by n%. Rows are shuffled and stem from different studies. An empty or dashed field is not shown.

smiles,read by,result
CC(C)c1c(CO)cn(Cc2ccc([N+](=O)[O-])cc2)c1Sc1cc(Cl)cc(Cl)c1,MTT,45 µM
CCCN1C(=O)c2cccn2S(=O)(=O)c2ccccc21,-,136 µM
Cc1c(C(C)(C)C)s/c(=N\S(=O)(=O)c2cccc(O)c2)n1C,MTT,>25 µM
O=C1CSC2(CCCCC2)N1Cc1ccco1,-,271 µM
Cc1c(C(C)C)s/c(=N\S(=O)(=O)c2cc(Br)ccc2C#N)n1C,MTT,>25 µM
CCOC(=O)c1cn(Cc2ccc([N+](=O)[O-])cc2)c(Sc2cc(Cl)cc(Cl)c2)c1C(C)C,MTT,>200 µM
COC(=O)[C@@H](CCSC)NP(=O)(OC[C@H]1C=C[C@@H](n2cnc3c(N)ncnc32)C1)Oc1ccccc1,trypan blue,133 µM
CCCCCCCCCC(=O)O[C@@H]1[C@@H](C)[C@@]2(O)[C@@H](C=C(COC(C)=O)C[C@]3(O)C(=O)C(C)=C[C@@H]23)[C@@H]2C(C)(C)[C@]12OC(=O)C(C)CC,-,>15.6 µg/mL
CC(C)CN1C(=O)c2cccn2S(=O)(=O)c2ccccc21,-,184 µM
CC1CCCCN1CCCNCc1ccc(CNCCCN2CCOCC2)cc1,MTT,>62.1 µM
CC(=O)Oc1ccc2ccccc2c1Cc1c(C)[nH]c2ccccc12,-,50 µM
O=C1CSC2(CCCCC2)N1c1ccccn1,-,502 µM
CC(C)c1c(CO)cn(Cc2ccncc2)c1Sc1cccc(Cl)c1,MTT,65 µM
COC(=O)[C@H](C)NP(=O)(OC[C@H]1C=C[C@@H](n2cnc3c(N)ncnc32)C1)Oc1ccc(Cl)c(Cl)c1,trypan blue,15.6 µM
CC1CCCCN1CCCNCc1ccc(CCNCCCN2CCOCC2)cc1,MTT,>60 µM
COc1cc2c(c(OC)c1CC=C(C)C)C[C@H](c1ccc(O)cc1O)CO2,-,>10 µg/mL
COC(=O)[C@H](CO[C@H]1O[C@H](C2COC(C)(C)O2)[C@@H]2OC(C)(C)O[C@H]12)NC(=O)[C@H](CCSC)NC(=O)COc1ccc2ccccc2c1,MTT,75 µg/mL
COc1ccc2c(Cc3c[nH]c4ccccc34)c(OC(C)=O)ccc2c1,-,18 µM
CC(=O)OCC1=C[C@H]2[C@@H]3C(C)(C)[C@]3(OC(C)=O)[C@H](OC(C)=O)[C@@H](C)[C@]2(O)[C@@H]2C=C(C)C(=O)[C@]2(O)C1,-,>500 µg/mL
CC(C)=CCc1c(-c2ccc(O)cc2O)oc2c3c(cc(O)c2c1=O)OC(C)(C)C=C3,-,9.1 µg/mL
CC1=C[C@H]2[C@@]3(O)[C@H](C)[C@@H](O)[C@]4(O)[C@H]([C@@H]3C=C(CO)C[C@@]2(O)C1=O)C4(C)C,-,>500 µg/mL
CC[C@H](C)[C@H](NP(=O)(OC[C@H]1C=C[C@@H](n2cnc3c(N)ncnc32)C1)Oc1ccccc1)C(=O)OC,trypan blue,99.6 µM
O=C1CSC(c2cccnc2)N1Cc1ccco1,-,339 µM
CC(=O)Oc1ccc2cc(Br)ccc2c1Cc1c[nH]c2ccccc12,-,19 µM
CC(C)c1c(CO)cn(Cc2ccncc2)c1Sc1cc(F)cc(F)c1,MTT,60 µM
Cc1c(C(C)(C)C)s/c(=N\S(=O)(=O)c2cccc(Cl)c2)n1C,MTT,>25 µM
COc1c(CC=C(C)C)c(O)cc2c1C[C@H](c1ccc(O)cc1O)CO2,-,34 µg/mL
Cc1cccc(N2C(=O)CSC2c2ccc(N(C)C)cc2)n1,-,325 µM
Cc1c(C(C)(C)C)s/c(=N\S(=O)(=O)c2cc(Cl)ccc2NS(C)(=O)=O)n1C,MTT,>25 µM
COC(=O)C[C@@H](NP(=O)(OC[C@H]1C=C[C@@H](n2cnc3c(N)ncnc32)C1)Oc1ccccc1)C(=O)OC,trypan blue,≥250 µM
c1cc(CCNCCCN2CCCC2)ccc1CCNCCCN1CCCC1,MTT,95.7 µM
O=C1CC(c2ccc(O)cc2)Oc2cc(O)ccc21,-,>100 µg/mL
CCOC(=O)c1cn(Cc2ccncc2)c(Sc2cccc(Cl)c2)c1C(C)C,MTT,42 µM
CC(=O)Oc1ccc2cc(Br)ccc2c1Cc1c(C)[nH]c2ccccc12,-,16 µM
COC(=O)[C@@H](NC(=O)CNC(=O)COc1ccc2ccccc2c1)C(C)C,MTT,82 µg/mL
O=S1(=O)c2ccccc2N=Cc2cccn21,-,46 µM
COC(=O)[C@H](CCSC)NC(=O)[C@H](CO)NC(=O)COc1ccc2ccccc2c1,MTT,49 µg/mL
CC(C)c1s/c(=N\S(=O)(=O)c2cc(Cl)ccc2C#N)n(C)c1Cl,MTT,3.8 µM
C[C@H]1[C@H](CO)C=C[C@@H]1n1ccc(N)nc1=O,-,>100 µg/mL
CCOC(=O)C1c2cccn2N(C)c2ccccc2N1C(=O)CCl,-,6 µM
Cc1ccnc2c1NC(=O)c1cccnc1N2C1CC1,MTT,>200 µM
c1cc(CCNCCN2CCCC2)ccc1CCNCCN1CCCC1,MTT,195 µM
CC1(C)C=Cc2c(cc(O)c3c(=O)c4c(oc23)-c2ccc(O)cc2OC(C(C)(C)OO)C4)O1,-,11 µg/mL
COC(=O)[C@H](C)NP(=O)(OC[C@H]1C=C[C@@H](n2cnc3c(N)ncnc32)C1)Oc1ccc(Cl)cc1,trypan blue,3.43 µM
CC(=O)OCC1=C[C@H]2[C@@H]3C(C)(C)[C@]3(OC(C)=O)[C@H](OC(=O)C34CC5CC(CC(C5)C3)C4)[C@@H](C)[C@]2(O)[C@@H]2C=C(C)C(=O)[C@]2(O)C1,-,>500 µg/mL
NC(=O)c1ncn([C@@H]2O[C@H](CO)[C@@H](O)[C@H]2O)n1,-,31 µM
COC(=O)CNC(=O)[C@H](C)NC(=O)COc1ccc2ccccc2c1,MTT,79 µg/mL
CC(C)c1s/c(=N\S(=O)(=O)c2cc(C#N)ccc2C#N)n(C)c1Cl,MTT,22 µM
COc1ccc2ccc(OC(C)=O)c(Cc3c(-c4ccccc4)[nH]c4ccccc34)c2c1,-,15 µM
CC1CCCCN1CCCNCCc1ccc(CNCCCN2CCCCC2C)cc1,MTT,>58.32 µM
CCCCCCCCCC(=O)O[C@@]12[C@H](OC(C)=O)[C@@H](C)[C@@]3(O)[C@@H](C=C(COC(C)=O)C[C@]4(OC)C(=O)C(C)=C[C@@H]34)[C@@H]1C2(C)C,-,>1.95 µg/mL
c1cc(CCNCCCN2CCOCC2)ccc1CCNCCCN1CCOCC1,MTT,241 µM
Cc1c(C(C)C)s/c(=N\S(=O)(=O)c2cc(C#N)ccc2C#N)n1C,MTT,11 µM